Laboratory results taken from paper doi:10.1101/2024.08.25.609621 (bioRxiv, 2024).

Columns and labels:
[1] = biological target: SARS-CoV-2 NSP3 macrodomain (Mac1), P43 crystal form (Severe acute respiratory syndrome coronavirus 2, UniProt P0DTD1)
[2] = biological target: SARS-CoV-2 NSP3 macrodomain (Mac1) (Severe acute respiratory syndrome coronavirus 2, UniProt P0DTD1)

Cc1c[nH]c2ncnc(NCC3(O)CCCCC3)c12 [AVI-3761, 1-(((5-methyl-7H-pyrrolo[2,3-d]pyrimidin-4-yl)amino)methyl)cyclohexan-1-ol]
1-BDC [1]: 0.2 | 1-BDC (PanDDA run, DMSO background map) [1]: 0.2 and 0.19 | 2*(1-BDC) (%) [1]: 40% | Binding site [1]: Adenosine | Hit (PanDDA run, DMSO background map) [1]: TRUE | Hit (PanDDA run, overall) [1]: TRUE | Refined ligand occupancy (%) [1]: 60% | Total number of conformations [1]: 1 | X-ray crystal structure [1]: TRUE | Hill slope [2]: 1.1 | Hillslope [2]: 1.1

“And” between values parts separate entries of the source, which are not always exact repeats. Equal values may be shown once.
